# Patent publication US20160258954A1, “METHOD OF DIAGNOSING AND TREATING EPSTEIN BARR VIRUS-BASED MYALGIC ENCEPHALOMYELITIS CHRONIC FATIGUE SYNDROME PATIENTS USING A SERUM ANTIBODY ASSAY” (CFS, LLC, priority 2015, published 2016)
# Test system: serum antibody of EBV CFS positive versus negative/healthy sera
# Assay: Luminex antigen-bead serum antibody assay (specificity of EBV recombinant antigens)
# Type: binding, human
# Settings: for signal differential between negative and positive serum samples: Reference Serum Test, all concentrations tested; for signal differential between known EBV positive and other samples (negative and healthy sera): summary incl. healthy serum test
Molecule,signal differential between negative and positive serum samples,signal differential between known EBV positive and other samples (negative and healthy sera)
"BALF5: recombinant EBV DNA polymerase catalytic subunit antigen, yeast derived",do not,no signal differential was observed
"BLLF3A: recombinant EBV dUTPase, deoxyuridine triphosphatase antigen, yeast-derived (protein, UniProt P03195 1-278, looked up, yeast-expressed recombinant, recombinant EBV dUTPase, deoxyuridine triphosphatase antigen, yeast-derived) Deoxyuridine 5'-triphosphate …: MEACPHIRYAFQNDKLLLQQASVGRLTLVNKTTILLRPMKTTTVDLGLYARPPEGHGLMLWGSTSRPVTSHVGIIDPGYTGELRLILQNQRRYNSTLRPSELKIHLAAFRYATPQMEEDKGPINHPQYPGDVGLDVSLPKDLALFPHQTVSVTLTVPPPSIPHHRPTIFGRSGLAMQGILVKPCRWRRGGVDVSLTNFSDQTVFLNKYRRFCQLVYLHKHHLTSFYSPHSDAGVLGPRSLFRWASCTFEEVPSLAMGDSGLSEALEGRQGRGFGSSGQ",do not,no signal differential was observed
"BMRF1: recombinant EBV DNA polymerase processivity factor, EA-D polymerase accessory subunit, yeast derived antigen (protein, UniProt P03191 1-404, looked up, yeast-expressed recombinant, recombinant EBV DNA polymerase processivity factor, EA-D polymerase accessory subunit, yeast derived antigen) DNA polymerase processivity …: METTQTLRFKTKALAVLSKCYDHAQTHLKGGVLQVNLLSVNYGGPRLAAVANAGTAGLISFEVSPDAVAEWQNHQSPEEAPAAVSFRNLAYGRTCVLGKELFGSAVEQASLQFYKRPQGGSRPEFVKLTMEYDDKVSKSHHTCALMPYMPPASDRLRNEQMIGQVLLMPKTASSLQKWARQQGSGGVKVTLNPDLYVTTYTSGEACLTLDYKPLSVGPYEAFTGPVAKAQDVGAVEAHVVCSVAADSLAAALSLCRIPAVSVPILRFYRSGIIAVVAGLLTSAGDLPLDLSVILFNHASEEAAASTASEPEDKSPRVQPLGTGLQQRPRHTVSPSPSPPPPPRTPTWESPARPETPSPAIPSHSSNTALERPLAVQLARKRTSSEARQKQKHPKKVKQAFNPLI",produces a signal differential,differential signal in every serum sample tested
